A mixed list of measured activities; the numbers were collected in NIAID ChemDB.

Shared fields: growth or infection tests; organism: Mouse cytomegalovirus

Inhibition is in % at the dose shown (toxicity tests: loss of growth or viability). a–b is a range or a potency band. ECn: concentration that inhibits the pathogen or its effect by n%. Rows are shuffled and stem from different studies. Blank or dashed fields: not listed here.

Nc1nc(NC2CC2)c2ncn(C=C3CC3CO)c2n1 ; cell line: MEF ; endpoint: EC50 ; result: 0.37 µM
Cc1nc2ccc(CN(C)c3ccc(C(=O)N[C@@H](CCC(=O)O)C(=O)O)s3)cc2c(=O)[nH]1 ; tested at: 0.01 µM ; endpoint: inhibition ; read by: virus yield ; result: 90%
COc1nc(N)nc2c1ncn2/C=C1/C[C@H]1CO ; cell line: MEF ; endpoint: EC50 ; result: 0.4 µM
CN(C)c1cccc2c(S(=O)(=O)Nc3ccc(NC(=O)C(C)(C)CO)cc3)cccc12 ; cell line: HFF ; strain: Smith (resistant) ; endpoint: EC50 ; read by: plaque count ; result: 28.3 µM
COc1cc(OC)c(NC(=S)Nc2ccc(NC(=O)c3ccco3)cc2)cc1Cl ; cell line: MEF ; strain: SMITH ; endpoint: EC50 ; result: >20 µM
CCC(=O)C(CCCCCCOc1ccc(OC)cc1Cl)C(=O)CC ; cell line: MEF ; tested at: 5 µg/mL ; strain: SMITH ; endpoint: inhibition ; read by: plaque count ; result: 83%
Nc1nc2c(ncn2COC(CO)CCP(=O)([O-])O)c(=O)[nH]1 ; cell line: 3T3 ; strain: SMITH ; endpoint: EC50 ; read by: cytopathic effect ; result: 10 µg/mL
Nc1ccn(C[C@@H](CO)OCP(=O)(O)O)c(=O)n1 ; cell line: HFF ; strain: Smith (resistant) ; endpoint: EC50 ; read by: plaque count ; result: 0.31 µM
N=c1c2ncn([C@@H]3O[C@H](COP(=O)(O)O)[C@@H](O)[C@@H]3O)c2ncn1O ; endpoint: MIC ; result: 1–10 µg/mL
Nc1nc(N)c2ncn(C=C3CC3CO)c2n1 ; cell line: MEF ; endpoint: EC50 ; result: 0.6 µM
Nc1nc2c(ncn2[C@@H]2C[C@H](CO)[C@H]2CO)c(=O)[nH]1 ; cell line: HFF ; strain: SMITH (WILD TYPE) ; endpoint: EC50 ; read by: plaque count ; result: 1.9 µM
COC(=O)[C@H](C)NP(=O)(OC[C@H]1C/C1=C/n1cnc2c(OC)nc(N)nc21)Oc1ccccc1 ; cell line: MEF ; endpoint: EC50 ; result: 0.24 µM
CCOP(=O)([O-])CCCOCn1cnc2c(=O)[nH]c(N)nc21 ; cell line: 3T3 ; strain: SMITH ; endpoint: EC50 ; read by: cytopathic effect ; result: 10 µg/mL
Nc1ccn(C[C@@H](CO)OCP(=O)(O)O)c(=O)n1 ; cell line: C1271 ; strain: SMITH ; endpoint: EC50 ; read by: cytopathic effect ; result: 0.1 µg/mL

Repeating the final 2 entries:

smiles,cell line,tested at,strain,endpoint,read by,result
CCOP(=O)([O-])CCCOCn1cnc2c(=O)[nH]c(N)nc21,3T3,,SMITH,EC50,cytopathic effect,10 µg/mL
Nc1ccn(C[C@@H](CO)OCP(=O)(O)O)c(=O)n1,C1271,,SMITH,EC50,cytopathic effect,0.1 µg/mL